The source of these data is paper PMC5158307, “Substrate specificity characterization for eight putative nudix hydrolases. Evaluation of criteria for substrate identification within the Nudix family” (Proteins, 2016).

Common to all, as to assay: purified protein
Common to all, as to conditions: pH 7.6; 37.0 °C

The subject of data set [1] is Nc1nc2c(ncn2[C@@H]2O[C@H](COP(=O)(O)OP(=O)(O)OP(=O)(O)O)[C@@H](O)[C@H]2O)c(=O)[nH]1.
For data set [2], the system named is Nc1ncnc2c1[nH]c(=O)n2[C@H]1C[C@H](O)[C@@H](COP(=O)(O)OP(=O)(O)OP(=O)(O)O)O1.
In data set [3] the test system is Nc1nc2c([nH]c(=O)n2[C@@H]2O[C@H](CO[P@@](=O)(O)O[P@@](=O)(O)OP(=O)(O)O)[C@@H](O)[C@H]2O)c(=O)[nH]1.
The test system of data set [4] is Nc1nc2c(ncn2[C@H]2C[C@H](O)[C@@H](COP(=O)(O)OP(=O)(O)OP(=O)(O)O)O2)c(=O)[nH]1.
The subject of data set [5] is Nc1nc2c([nH]c(=O)n2[C@H]2C[C@H](O)[C@@H](COP(=O)(O)OP(=O)(O)OP(=O)(O)O)O2)c(=O)[nH]1.

Consider “Q0TS82_CLOP1 (Clostridium perfringens ATCC 13124)”, for which, in data set [1], the Km amounted to 59 ± 6 µM and the kcat/Km was 4400 ± 100 M⁻¹ s⁻¹.
Turning to “Q0TTC5_CLOP1 (Clostridium perfringens ATCC 13124)”, the Km was 0.93 ± 0.26 µM in data set [2], 2.2 ± 0.4 µM in data set [3], 38 ± 12 µM in data set [4] and 1.4 ± 0.3 µM in data set [5]. Also, the kcat/Km in data set [2] was 2.8e+06 M⁻¹ s⁻¹; in data set [3], 1.2e+06 M⁻¹ s⁻¹; in data set [4], 180000 M⁻¹ s⁻¹; in data set [5] it was 430000 M⁻¹ s⁻¹.

The Km is the substrate concentration at which the rate is half of its maximum. In general, kcat/Km refers to the turnover number divided by the Michaelis constant.
